Results of unrelated studies side by side (data: NIAID ChemDB).

All rows: growth or infection tests; species: Mycobacterium tuberculosis

Lines come from different laboratories, so protocols vary. Inhibition is in % at the dose shown (toxicity tests: loss of growth or viability). Two numbers with a dash give a range or band. A number after MIC or MFC names an inhibition level or a share of isolates. MIC bound comes from a single tested concentration. ECn is the concentration giving n% inhibition of infection, replication or growth. An empty or dashed field is not shown.

structure,strain,changes,cells,read by,setting,endpoint,tested at,result
CCCCCCCOc1ccccc1NC(=O)OCCN1CCCCC1,My 331/88,-,-,-,-,MIC,-,32 µM
Nc1cc(Cl)c(Cl)cc1S(=O)(=O)O,-,-,-,resazurin,-,MIC bound,-,>6.25 µg/mL
Fc1ccc(CNCc2c[nH]c3ccccc23)c(F)c1,H37Ra,-,-,-,-,MIC,-,64 µg/mL
N#Cc1cc(SCC(=O)NN)ccn1,331/81,-,-,-,-,MIC,-,1000 µM
Cc1ccc(-n2c(=O)oc3cc(C)ccc3c2=O)cc1,CNCTC MY331/88,-,-,-,-,MIC,-,62 µM
NC(=O)c1cccn1Cc1ccccc1SSc1ccccc1Cn1cccc1C(N)=O,H37Rv,-,-,BACTEC,-,inhibition,12.5 µg/mL,0%
CCCOc1cc2oc3cc(O)c(CCC(C)C)c(O)c3c(=O)c2c(CCC(C)C)c1OC,M22,MDR,-,resazurin,-,MIC,-,6.25 µg/mL
CC(C)O/N=C/c1cc(NC(=S)OC(C)C)ccc1Cl,H37Rv,-,-,BACTEC,-,MIC bound,-,>12.5 µg/mL
CCn1cc(C(=O)O)c(=O)c2cc(F)c(N3CCN(CC(=O)c4ccc(OC)cc4)CC3)cc21,H37Rv,-,-,-,-,EC50,-,>6.25 µg/mL
Clc1ccc(CNCCc2c[nH]c3ccccc23)cc1,H37Ra,-,-,-,-,MIC,-,32 µg/mL
c1cc(CN2CCNCCNCCNCC2)cc(CN2CCNCCNCCNCC2)c1,H37Rv,-,-,resazurin,-,MIC bound,-,>6.25 µg/mL
CCCCCCCCc1ccc(-c2nnc(SCc3ccc(Cl)cc3)n2C)cc1,-,-,-,resazurin,-,EC50,-,>200 µM
C=CCOc1cc2oc3cc(O)c(CCC(C)C)c(O)c3c(=O)c2c(CCC(C)C)c1OC,M21,-,-,resazurin,-,MIC,-,3.12 µg/mL
COc1ccc2oc(=O)n(-c3ccccc3)c(=O)c2c1,CNCTC MY331/88,-,-,-,-,MIC,-,125 µM
CO/N=C1\C[C@@H](C)O[C@@H](O[C@@H]2[C@@H](C)[C@H](O[C@H]3C[C@H](C)N(C4CCC4)C[C@H](C)O3)[C@@H](C)C(=O)O[C@H]([C@@H](C)CO[C@@H]3O[C@H](C)[C@@H](O)[C@@H](OC)[C@H]3OC)[C@H](C)[C@@H](OC(=O)CC(C)C)[C@@H](C)C(=O)[C@@](C)(OC(=O)N3CCO[C@@H](C)C3)C[C@@H]2C)[C@@H]1O,H37Rv,-,-,resazurin,-,MIC,-,0.809 µM
N#Cc1ccnc(N2CCCCC2)c1,331/81,-,-,-,-,MIC,-,500 µM
CCN(CC)c1ccc(/C=N/Nc2cc(C)nc3cc(OC)ccc23)cc1,H37Rv,-,VERO,-,-,inhibition,12.5 µg/mL,100%
CO[C@H]1/C=C/O[C@@]2(C)Oc3c(C)c(O)c4c(O)c(c(/C=N/N5CCN(C)CC5)c(O)c4c3C2=O)NC(=O)/C(C)=C\C=C\[C@H](C)[C@H](O)[C@@H](C)[C@@H](O)[C@@H](C)[C@H](OC(C)=O)[C@@H]1C,H37Rv,-,-,resazurin,-,MIC,-,2 µg/mL
CCCCCCC#Cc1cncc(-c2nnc(SCc3ccccc3)n2C)c1,Erdman,-,-,resazurin,-,EC50,-,175 µM
NC(=S)c1ccnc(SCC(O)CO)c1,331/81,-,-,-,-,MIC,-,500 µM
CCS,H37Rv,-,-,-,-,MIC,-,0.1 µg/mL
CCOC(=O)c1ccc2c(c1)P(=O)(O)c1cc(C(=O)OCC)ccc1O2,H37Rv,-,-,BACTEC,-,inhibition,12.5 µg/mL,0%
Cc1c(OCC(F)(F)F)ccnc1CSc1nc2ccccc2[nH]1,H37Rv,-,-,resazurin,14 d,MIC90,-,1.71 µM
NC1CCN(CCCCn2ccc(Nc3ccc(C(=O)NC4CNC4)cn3)nc2=O)CC1,H37Rv,-,-,turbidity,-,EC50,-,<0.5 µM
N#CCCSc1ccnc(C#N)c1,331/81,-,-,-,-,MIC,-,125 µM
O=Cc1ccc(/C=N/NC(=O)c2ccncc2)cc1,katG (S315T),-,-,BACTEC,-,MIC99,-,>39.5 µM
COc1cc(C=CC(=NNC(N)=S)c2sc(NNC(C)=O)nc2C)ccc1O,H37Rv,-,-,resazurin,-,MIC bound,-,>6.25 µg/mL
CCOc1cc2oc3cc(O)c(CCC(C)C)c(O)c3c(=O)c2c(CCC(C)C)c1OC,M27,-,-,resazurin,-,MIC,-,1.56 µg/mL
N#CC1C=Cc2c(ccc3cccnc23)N1C(=O)c1ccccc1,H37Rv,-,-,BACTEC,-,MIC bound,-,>12.5 µg/mL
NC[C@H]1O[C@H](O[C@H]2[C@H](O)[C@@H](O[C@H]3O[C@H](CO)[C@@H](O)[C@H](N)[C@H]3O)[C@H](N)C[C@@H]2N)[C@H](O)[C@@H](O)[C@@H]1O,H37Ra,-,-,resazurin,-,MIC,-,2.5 µg/mL
CN(C)CCc1c[nH]c2ccccc12,H37Ra,-,-,-,-,MIC,-,256 µg/mL
O=c1oc2ccccc2c(=O)n1-c1ccc(C(F)(F)F)cc1,CNCTC MY331/88,-,-,-,-,MIC,-,8 µM
COc1ccc2c(NN)cc(C)nc2c1,H37Rv,-,-,-,inside macrophages,MIC,-,6.25 µg/mL
Cc1[nH]c2ccc(N(C)C)cc2c(=O)c1CN1CCN(C)CC1,H37Rv,-,-,BACTEC,-,inhibition,12.5 µg/mL,-2%
COc1cc2oc3cc(O)c(CCC(C)C)c(O)c3c(=O)c2c(CCC(C)C)c1OC,M-3,-,-,resazurin,-,MIC,-,0.78 µg/mL
Fc1cccc(F)c1CNCCc1c[nH]c2ccccc12,H37Ra,-,-,-,-,MIC,-,64 µg/mL
O=C(CN1CCN(c2cc3c(cc2F)c(=O)c(C(=O)O)cn3C2CC2)CC1)c1ccc(Br)cc1,H37Rv,-,VERO,-,-,MIC,-,0.78 µg/mL
C[N+](C)=c1ccc2nc3c(cc(N)c4ccccc43)oc-2c1,H37Rv,-,VERO,-,-,MIC,-,0.03 µg/mL
Clc1cccc(CNCc2c[nH]c3ccccc23)c1,H37Ra,-,-,-,-,MIC,-,8 µg/mL
NC(=O)c1cnccn1,BDDIS20 (niacin-positive),-,-,-,-,MIC,-,>2048 µg/mL
NC1CCN(CCCCn2ccc(Nc3cc(COCCCNC4CC4)ccn3)nc2=O)CC1,H37Rv,-,-,turbidity,-,EC50,-,0.5–1 µM
COc1cc2oc3cc(OC)c(C(C)=O)c(CC=C(C)C)c3c(=O)c2c(O)c1CC=C(C)C,H37Ra,-,-,resazurin,-,MIC,-,>200 µg/mL
Clc1ccccc1CNCCc1c[nH]c2ccccc12,H37Ra,-,-,-,-,MIC,-,32–64 µg/mL
CCCCCOc1cccc(NC(=O)OCCN2CCCCC2)c1,My 331/88,-,-,-,-,MIC,-,16 µM
Cc1ccc2oc(=O)n(-c3ccc(Cl)cc3)c(=O)c2c1,CNCTC MY331/88,-,-,-,-,MIC,-,16 µM
CCCCOc1ccccc1NC(=O)OC(C)CN1CCCCC1,My 331/88,-,-,-,-,MIC,-,62.5 µM
CC1=C(/C=C/C(C)=N/NC(=O)c2ccncc2)C(C)(C)CCC1,H37Rv,-,VERO,resazurin,-,MIC,-,0.1 µg/mL
CO/N=C1\C[C@@H](C)O[C@@H](O[C@@H]2[C@@H](C)[C@H](O[C@H]3C[C@@H](C)N(CC(C)(C)O)C[C@H](C)O3)[C@@H](C)C(=O)O[C@H]([C@@H](C)CO[C@@H]3O[C@H](C)[C@@H](O)[C@@H](OC)[C@H]3OC)[C@H](C)[C@@H](OC(=O)CC(C)C)[C@@H](C)C(=O)[C@@](C)(OC(=O)N3CCO[C@@H](C)C3)C[C@@H]2C)[C@@H]1O,H37Rv,-,-,resazurin,-,MIC,-,0.7 µM
Cc1ccc(NC(=O)c2ccc([N+](=O)[O-])cc2)cc1Cl,H37Rv,-,-,BACTEC,-,inhibition,12.5 µg/mL,77%
CO/N=C1\C[C@@H](C)O[C@@H](O[C@@H]2[C@@H](C)[C@H](O[C@H]3CC(C)N(C4CCC4)C[C@H](C)O3)[C@@H](C)C(=O)O[C@H]([C@@H](C)CO[C@@H]3O[C@H](C)[C@@H](O)[C@@H](OC)[C@H]3OC)[C@H](C)[C@@H](OC(=O)CC(C)C)[C@@H](C)C(=O)[C@@](C)(OC(=O)N3C[C@@H](C)O[C@@H](C)C3)C[C@@H]2C)[C@@H]1O,H37Rv,-,-,resazurin,-,MIC,-,0.675 µM
Cc1ncc(CO)c(CO)c1O,H37Rv,-,-,BACTEC,-,inhibition,12.5 µg/mL,19%
CCCCCCC#Cc1cncc(-c2nnc(SCc3cc([N+](=O)[O-])cc([N+](=O)[O-])c3)n2C2CC2)c1,-,-,-,resazurin,-,EC50,-,1.1 µM
NCCCNC(=O)c1ccnc(Nc2ccn(CCCCN3CCC(N)CC3)c(=O)n2)c1,H37Rv,-,-,turbidity,-,EC50,-,<0.5 µM
CCCCCC(CC(=O)N1N=CCCC1C(=O)N[C@H]1COC(=O)C2C[C@@H](C)CNN2C(=O)[C@H](C)NC(=O)[C@@H](CC(C)C)NC1=O)C(=O)O,246,-,-,-,-,MIC,-,25 µg/mL
CN(Cc1cccc(Cl)c1)Cc1c[nH]c2ccccc12,H37Ra,-,-,-,-,MIC,-,32 µg/mL
COc1ccc(/C=N/Nc2ccnc3cc(Cl)ccc23)c2ccccc12,H37Rv,-,VERO,-,-,MIC,-,3.13 µg/mL
Cc1ccc(C(=O)CN2CCN(c3cc4c(cc3F)c(=O)c(C(=O)O)cn4C3CC3)CC2)cc1,H37Rv,-,VERO,-,-,inhibition,6.25 µg/mL,101%
CCN(CC)C(=S)[S][Bi]([S]C(=S)N(CC)CC)[S]C(=S)N(CC)CC,TAC-R,-,-,-,-,MIC,-,0.8 µg/mL
CCCCCCCOc1ccccc1NC(=O)OC(COCC)CN1CCCCC1,My 331/88,-,-,-,-,MIC,-,32 µM
CO[C@@]12[C@H](COC(N)=O)C3=C(C(=O)C(C)=C(N)C3=O)N1C[C@H]1[C@@H]2N1C(=O)C1N2C(=O)[C@@H](NC(=O)Cc3ccccc3)[C@H]2SC1(C)C,RMP-R,-,-,-,-,MIC,-,0.2 µg/mL
CCn1cc(C(=O)O)c(=O)c2cc(F)c(N3CCN(CC(=O)c4ccccc4)CC3)cc21,H37Rv,-,VERO,-,-,inhibition,6.25 µg/mL,100%
Clc1cccc(Cl)c1CNCCc1c[nH]c2ccccc12,H37Ra,-,-,-,-,MIC,-,32 µg/mL
NNC(=O)c1ccncc1,M5,MDR,-,resazurin,-,MIC,-,>2 µg/mL
NC[C@H]1O[C@H](O[C@H]2[C@H](O)[C@@H](O[C@H]3O[C@H](CO)[C@@H](O)[C@H](N)[C@H]3O)[C@H](N)C[C@@H]2N)[C@H](O)[C@@H](O)[C@@H]1O,TN4826 (H),-,-,-,-,MIC,-,>256 µg/mL
COCCN1C[C@H](C)O[C@@H](O[C@H]2[C@H](C)[C@@H](O[C@@H]3O[C@H](C)C/C(=N\OC)[C@H]3O)[C@@H](C)C[C@](C)(OC(=O)N3C[C@@H](C)O[C@@H](C)C3)C(=O)[C@H](C)[C@H](OC(=O)CC(C)C)[C@@H](C)[C@@H]([C@@H](C)CO[C@@H]3O[C@H](C)[C@@H](O)[C@@H](OC)[C@H]3OC)OC(=O)[C@@H]2C)C[C@H]1C,H37Rv,-,-,resazurin,-,MIC,-,0.688 µM
N#CCCCSc1ccnc(C(=N)N)c1,331/81,-,-,-,-,MIC,-,1000 µM
COc1ccc(CSC(=S)Nc2cc(Cl)c(Cl)cc2Cl)cc1,H37Rv,-,-,BACTEC,-,MIC bound,-,≤128 µg/mL
NCCCOCc1ccc(Nc2ccn(CCCCN3CCC(N)CC3)c(=O)n2)nc1,H37Rv,-,-,turbidity,-,EC50,-,≥1 µM
N#CCC(=O)N/N=C1\C(=O)NC(=O)C(=O)C1c1nc2ccccc2s1,H37Rv,-,-,BACTEC,-,MIC bound,-,>12.5 µg/mL
CC[C@H]1OC(=O)[C@H](C)C(=O)[C@H](C)[C@@H](O[C@@H]2O[C@H](C)C[C@H](N(C)C)[C@H]2O)[C@](C)(OC)C[C@@H](C)C(=O)[C@H](C)[C@H]2N(NCCCc3ccnc4ccccc34)C(=O)O[C@]12C,Isolate 900145,-,-,-,-,MIC,-,10 µg/mL
Cc1ccc(N2CCN(CCCN3CCN(c4ccc(C)cc4)CC3)CC2)cc1,H37Rv,-,-,resazurin,-,inhibition,6.25 µg/mL,60%
Cc1cc(N/N=C/c2ccccc2)c2cc(C3CCCCC3)ccc2n1,H37Rv,-,VERO,-,-,MIC,-,6.25 µg/mL
C/C(O)=C(/N=Nc1ccc(-c2nc3ccc(C)c(S(=O)(=O)O)c3s2)cc1)C(=O)Nc1ccccc1,H37Rv,-,-,resazurin,-,inhibition,6.25 µg/mL,-29%
NC(=S)CSc1ccnc(C(N)=S)c1,331/81,-,-,-,-,MIC,-,62 µM
CC(C)=NNC(=O)c1ccc[n+](Cc2ccccc2)c1,H37Rv,-,-,BACTEC,-,inhibition,12.5 µg/mL,30%
CCOc1cc2oc3cc(OCC)c(OC)c(CCC(C)C)c3c(=O)c2c(O)c1CCC(C)C,H37Ra,-,-,resazurin,-,MIC,-,>200 µg/mL
S=C1SCN(CCc2c[nH]c3ccccc23)CN1CCc1c[nH]c2ccccc12,H37Rv,-,-,BACTEC,-,inhibition,12.5 µg/mL,-8%
CCn1cc(C(C[N+](=O)[O-])C[N+](=O)[O-])c2ccccc21,H37Ra,-,-,-,-,MIC,-,>128 µg/mL

The last 7 rows once more:

structure,strain,changes,cells,read by,setting,endpoint,tested at,result
Cc1cc(N/N=C/c2ccccc2)c2cc(C3CCCCC3)ccc2n1,H37Rv,-,VERO,-,-,MIC,-,6.25 µg/mL
C/C(O)=C(/N=Nc1ccc(-c2nc3ccc(C)c(S(=O)(=O)O)c3s2)cc1)C(=O)Nc1ccccc1,H37Rv,-,-,resazurin,-,inhibition,6.25 µg/mL,-29%
NC(=S)CSc1ccnc(C(N)=S)c1,331/81,-,-,-,-,MIC,-,62 µM
CC(C)=NNC(=O)c1ccc[n+](Cc2ccccc2)c1,H37Rv,-,-,BACTEC,-,inhibition,12.5 µg/mL,30%
CCOc1cc2oc3cc(OCC)c(OC)c(CCC(C)C)c3c(=O)c2c(O)c1CCC(C)C,H37Ra,-,-,resazurin,-,MIC,-,>200 µg/mL
S=C1SCN(CCc2c[nH]c3ccccc23)CN1CCc1c[nH]c2ccccc12,H37Rv,-,-,BACTEC,-,inhibition,12.5 µg/mL,-8%
CCn1cc(C(C[N+](=O)[O-])C[N+](=O)[O-])c2ccccc21,H37Ra,-,-,-,-,MIC,-,>128 µg/mL